Source: US20150268247A1, “Assay for Screening of Anti-Viral Compounds That Inhibit Specific Interaction Interfaces Between Cullin5 and an ElonginB/ElonginC/ CBF-beta/HIV-1 Vif Complex” (UNIVERSITY OF ROCHESTER, priority 2012, published 2015)

Sequences of proteins named here, by UniProt entry; tags and fusion partners are left off. A line that says so, or that is headed by a name, gives the form on record, which may keep a tag or linker.
ElonginB/ElonginC heterodimer (human), Q15370, UniProt Q15370, other isoform, or with tags, fused parts or gaps limits assumed, chain 1 of 2: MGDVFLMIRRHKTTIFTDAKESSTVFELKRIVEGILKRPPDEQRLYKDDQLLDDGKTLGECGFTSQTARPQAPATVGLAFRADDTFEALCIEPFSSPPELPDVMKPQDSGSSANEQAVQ

Target: ElonginB/ElonginC heterodimer (human), Q15370
Assay: fluorescence anisotropy, 5-FAM labelled peptide titrated with EloB/C up to about 115 µM; Table 4 of the text prints 45.2 for this pair [cont.) lower right panel]

LFSDVHAVCLWD (modifications not checked) [Cul5(43-54) peptide]
Kd: 45.9 µM
